Reference: US10689340B2, “Substituted indoline derivatives as dengue viral replication inhibitors” (priority 2016, dated 2020)

Test system: DENV-2 16681 strain
Assay: DENV-2 antiviral assay (eGFP fluorescence)
Format: cell-based, Dengue virus
Details: SI=CC50/EC50, DENV-2 antiviral assay
Protocol: The antiviral activity of all the compounds of the invention was tested against the DENV-2 16681 strain which was labeled with enhanced green fluorescent protein (eGPF). The culture medium consists of minimal essential medium supplemented with 2% of heat-inactivated fetal calf serum, 0.04% gentamycin (50 mg/mL) and 2 mM of L-glutamine. Vero cells, obtained from ECACC, were suspended in culture medium and 25 μL was added to 384-well plates (2500 cells/well), which already contain the antiviral compounds. Typically, these plates contain a 5-fold serial dilution of 9 dilution steps of the test compound at 200 times the final concentration in 100% DMSO (200 nL). […] Finally, each plate contains wells which are assigned as virus controls (containing cells and virus in the absence of compound), cell controls (containing cells in the absence of virus and compound) and medium controls (containing medium in the absence of cells, virus and compounds). To the wells assigned as medium control, 25 μL of culture medium was added instead of Vero cells. Once the cells were added to the plates, the plates were incubated for 30 minutes at room temperature to allow the cells to distribute evenly within the wells. Next, the plates were incubated in a fully humidified incubator (37° C., 5% CO2) until the next day. Then, DENV-2 strain 16681, labeled with eGFP, was added at a multiplicity of infection (MOI) of 0.5. Therefore, 15 μL of virus suspension was added to all the wells containing test compound and to the wells assigned as virus control. In parallel, 15 μL of culture medium was added to the medium and cell controls. Next, the plates were incubated for 3 days in a fully humidified incubator (37° C., 5% CO2). At the day of the read out, the eGFP fluorescence was measured using an automated fluorescence microscope at 488 nm (blue laser). Using an in-house LIMS system, inhibition dose response curves for each compound were calculated and the half maximal effective concentration (EC50) was determined. Therefore, the percent inhibition (I) for every test concentration is calculated using the following formula: I=100*(ST-SCC)/(SVC-SCC); ST, SCC and SVC are the amount of eGFP signal in the test compound, cell control and virus control wells, respectively. The EC50, represents the concentration of a compound at which the virus replication is inhibited with 50%, as measured by a 50% reduction of the eGFP fluorescent intensity compared to the virus control. The EC50 is calculated using linear interpolation (Table 1).

| Compound | SI |
| --- | --- |
| COc1cc(NC(C(=O)N2CCc3ccc(C(F)(F)F)cc32)c2ccc(F)cc2)cc(OCCCC(=O)O)c1 (racemic) [Compound 1, 4-(3-((1-(4-fluorophenyl)-2-oxo-2-(6-(trifluoromethyl)-indolin-1-yl)ethyl)amino)-5-methoxyphenoxy)butanoic acid] | >12022 |
| COc1cc(NC(C(=O)N2CCc3ccc(OC(F)(F)F)cc32)c2ccc(F)cc2)cc(OCCCC(=O)O)c1 (racemic) [Compound 2, 4-(3-((1-(4-fluorophenyl)-2-oxo-2-(6-(trifluoromethoxy)indolin-1-yl)ethyl)amino)-5-methoxyphenoxy)butanoic acid] | 22200 |
| COc1cc(NC(C(=O)N2CCc3ccc(C(F)(F)F)cc32)c2ccc(Cl)cc2)cc(OCCCC(=O)O)c1 (racemic) [Compound 3, 4-(3-((1-(4-chlorophenyl)-2-oxo-2-(6-(trifluoromethyl)indolin-1-yl)ethyl)amino)-5-methoxyphenoxy)butanoic acid] | 20300 |
| COc1cc(NC(C(=O)N2CCc3ccc(OC(F)(F)F)cc32)c2ccc(Cl)cc2)cc(OCCCC(=O)O)c1 (racemic) [Compound 4, 4-(3-((1-(4-chlorophenyl)-2-oxo-2-(6-(trifluoromethoxy)indolin-1-yl)ethyl)amino)-5-methoxyphenoxy)butanoic acid] | >46100 |
| COc1cc(NC(C(=O)N2CCc3cc(OC)c(C(F)(F)F)cc32)c2ccc(Cl)cc2)cc(OCCCC(=O)O)c1 (racemic) [Compound 5, 4-(3-((1-(4-chlorophenyl)-2-(5-methoxy-6-(trifluoromethyl)indolin-1-yl)-2-oxoethyl)amino)-5-methoxyphenoxy)butanoic Acid] | 26000 |
| COc1cc(NC(C(=O)N2CCc3ccc(C(F)(F)F)cc32)c2ccc(Cl)cc2OC)cc(OCCCC(=O)O)c1 (racemic) [Compound 6, 4-(3-((1-(4-chloro-2-methoxyphenyl)-2-oxo-2-(6-(trifluoro-methyl)indolin-1-yl)ethyl)amino)-5-methoxyphenoxy)butanoic acid] | 32100 |
| COc1cc(NC(C(=O)N2CCc3cc(OC)c(C(F)(F)F)cc32)c2ccc(Cl)cc2OC)cc(OCCCC(=O)O)c1 (racemic) [Compound 7, 4-(3-((1-(4-chloro-2-methoxyphenyl)-2-(5-methoxy-6-(trifluoromethyl)indolin-1-yl)-2-oxoethyl)amino)-5-methoxyphenoxy)butanoic acid] | 24500 |
| COc1cc(NC(C(=O)N2CCc3ccc(OC(F)(F)F)cc32)c2ccc(Cl)cc2OC)cc(OCCCC(=O)O)c1 (racemic) [Compound 8, 4-(3-((1-(4-chloro-2-methoxyphenyl)-2-oxo-2-(6-(trifluoro-methoxy)indolin-1-yl)ethyl)amino)-5-methoxyphenoxy)butanoic acid] | 112292 |
| COc1cc(NC(C(=O)N2CCc3ccc(C(F)(F)F)cc32)c2ccc(Cl)cc2F)cc(OCCCC(=O)O)c1 (racemic) [Compound 9, 4-(3-((1-(4-chloro-2-fluorophenyl)-2-oxo-2-(6-(trifluoromethyl)indolin-1-yl)ethyl)amino)-5-methoxy-phenoxy)butanoic acid] | 12700 |
| COc1cc(NC(C(=O)N2CCc3ccc(OC(F)(F)F)cc32)c2ccc(Cl)cc2F)cc(OCCCC(=O)O)c1 (racemic) [Compound 10, 4-(3-((1-(4-chloro-2-fluorophenyl)-2-oxo-2-(6-(trifluoromethoxy)indolin-1-yl)ethyl)amino)-5-methoxy-phenoxy)butanoic acid] | 44300 |
| COc1cc(NC(C(=O)N2CCc3cc(OC)c(C(F)(F)F)cc32)c2ccc(Cl)cc2F)cc(OCCCC(=O)O)c1 (racemic) [Compound 11, 4-(3-((1-(4-chloro-2-fluorophenyl)-2-(5-methoxy-6-(trifluoromethyl)indolin-1-yl)-2-oxoethyl)amino)-5-methoxyphenoxy)butanoic acid] | 20600 |
| COc1cc(NC(C(=O)N2CCc3cc(OC)c(OC(F)(F)F)cc32)c2ccc(Cl)cc2)cc(OCCCC(=O)O)c1 (racemic) [Compound 12, 4-(3-((1-(4-chlorophenyl)-2-(5-methoxy-6-(trifluoro-methoxy)indolin-1-yl)-2-oxoethyl)amino)-5-methoxyphenoxy)butanoic acid] | 17700 |
| COc1cc(NC(C(=O)N2CCc3ccc(C(F)(F)F)cc32)c2ccc(F)cc2)cc(OCCCC(=O)O)c1 (single isomer, unassigned) [Compound 1A] | >76 |
| COc1cc(NC(C(=O)N2CCc3ccc(OC(F)(F)F)cc32)c2ccc(F)cc2)cc(OCCCC(=O)O)c1 (single isomer, unassigned) [Compound 2A] | 248 |
| COc1cc(NC(C(=O)N2CCc3ccc(C(F)(F)F)cc32)c2ccc(Cl)cc2)cc(OCCCC(=O)O)c1 (single isomer, unassigned) [Compound 3A] | 3200 |
| COc1cc(NC(C(=O)N2CCc3ccc(OC(F)(F)F)cc32)c2ccc(Cl)cc2)cc(OCCCC(=O)O)c1 (single isomer, unassigned) [Compound 4A] | 345 |
| COc1cc(NC(C(=O)N2CCc3cc(OC)c(C(F)(F)F)cc32)c2ccc(Cl)cc2)cc(OCCCC(=O)O)c1 (single isomer, unassigned) [Compound 5A] | 625 |
| COc1cc(NC(C(=O)N2CCc3ccc(C(F)(F)F)cc32)c2ccc(Cl)cc2OC)cc(OCCCC(=O)O)c1 (single isomer, unassigned) [Compound 6A] | 527 |
| COc1cc(NC(C(=O)N2CCc3cc(OC)c(C(F)(F)F)cc32)c2ccc(Cl)cc2OC)cc(OCCCC(=O)O)c1 (single isomer, unassigned) [Compound 7A] | 508 |
| COc1cc(NC(C(=O)N2CCc3ccc(OC(F)(F)F)cc32)c2ccc(Cl)cc2OC)cc(OCCCC(=O)O)c1 (single isomer, unassigned) [Compound 8A] | 43 |
| COc1cc(NC(C(=O)N2CCc3ccc(C(F)(F)F)cc32)c2ccc(Cl)cc2F)cc(OCCCC(=O)O)c1 (single isomer, unassigned) [Compound 9A] | 392 |
| COc1cc(NC(C(=O)N2CCc3ccc(OC(F)(F)F)cc32)c2ccc(Cl)cc2F)cc(OCCCC(=O)O)c1 (single isomer, unassigned) [Compound 10B] | 1620 |
| COc1cc(NC(C(=O)N2CCc3cc(OC)c(C(F)(F)F)cc32)c2ccc(Cl)cc2F)cc(OCCCC(=O)O)c1 (single isomer, unassigned) [Compound 11A] | 837 |
| COc1cc(NC(C(=O)N2CCc3cc(OC)c(OC(F)(F)F)cc32)c2ccc(Cl)cc2)cc(OCCCC(=O)O)c1 (single isomer, unassigned) [Compound 12A] | 32 |
